Compound potency records, mixed from different reports. Data source: NIAID ChemDB in PubChem.

Common to all: whole-cell or culture tests; species: Hepatitis C virus; method: luciferase; measure: EC50

ECn is the concentration giving n% inhibition of infection, replication or growth. Rows are shuffled and stem from different studies. Blank or dashed fields: not listed here.

SMILES	setting	cell line	strain	mutations	result
COC(=O)N[C@H](C(=O)N1CCC[C@H]1c1ncc(-c2ccc(-c3ccc(-c4cnc([C@@H]5CCCN5C(=O)[C@@H](NC(=O)OC)C(C)C)[nH]4)cc3)cc2)[nH]1)C(C)C	-	ET	1b	L31V	0.000098 µM
CNC(=O)c1c(-c2ccc(F)cc2)oc2cc(N(Cc3ccc(B(O)O)c(F)c3)S(C)(=O)=O)c(C3CC3)cc12	-	Huh7.5	Con1 genotype 1b	-	0.0016 µM
COc1ccc(/C=C2\S/C(=N/S(=O)(=O)c3ccc(Cl)cc3)NC2=O)cc1	-	Huh 5-2	1b	-	>71.07 µM
COc1c(-c2ccc3cc(NS(C)(=O)=O)ccc3c2)cc(-n2ccc(=O)[nH]c2=O)cc1C(C)(C)C	0% human plasma	-	genotype 1a H77	-	0.0077 µM
COc1ccc(/C=C2\S/C(=N/S(=O)(=O)c3ccc(C)cc3)NC2=O)cc1	-	Huh 5-2	1b	-	>68.04 µM
Cc1cc(-c2nnc(N[C@@H]3CCC[C@H](O)C3)o2)nc2c(C(C)(C)C)cc(OCC(F)(F)F)cc12	-	-	1b H94N	-	0.0055 µM
Nc1ccc(S(=O)(=O)/N=C2/NC(=O)/C(=C/c3ccccc3Cl)S2)cc1	-	Huh 5-2	1b	-	95.67 µM
CC(C)CC[C@@]1(C)C(=O)C(C2=NS(=O)(=O)c3cc(NS(C)(=O)=O)ccc3N2)=C(O)c2ccccc21	-	Huh7	2a	-	12.6 µM
COc1nc(N)nc2c1ncn2[C@@H]1O[C@H](COP(=O)(N[C@@H](C)C(=O)OCC(C)(C)C)Oc2cccc3ccccc23)[C@@H](O)[C@@]1(C)O	24 h	Huh7	1b	-	0.011 µM
CCCCn1c(=O)c2cc(OC)ccc2c2cc(C(O)(C(F)(F)F)C(F)(F)F)c(OC)cc21	-	LucNeo2 cells	1b	-	0.13 µM
CCCCCCCCCN1CCN(Cc2c(O)cc3c(c2O)-c2cc(ccc2O)[C@H]2NC(=O)[C@@H]4NC(=O)[C@H]5NC(=O)[C@@H](Cc6ccc(c(Cl)c6)Oc6cc4cc(c6O)Oc4ccc(cc4Cl)[C@@H](O)[C@H](NC2=O)C(=O)N[C@@H]3C(=O)O)NC(=O)[C@H](N)c2ccc(O)c(c2)Oc2cc(O)cc5c2)CC1	-	-	Huh Mono	-	4.8 µM
Cc1[nH]c(NC(=O)C(C)c2ccccc2)nc1-c1ccc(C(=O)O)c(S(C)(=O)=O)c1	-	Huh7	1a	-	>10 µM
COc1ccc(/C=C2\S/C(=N/S(=O)(=O)c3ccc(F)cc3)NC2=O)cc1	-	Huh 5-2	1b	-	74.74 µM
COc1ccc(-c2nc(NC(=O)[C@@H](C)c3ccc(Cl)cc3)[nH]c2C)cc1S(C)(=O)=O	-	Huh7	1a	-	0.142 µM
Cc1cc(-c2nnc(NC3CC(O)(C(F)F)C3)o2)nc2c(C(C)(C)C)cc(NCC(F)(F)F)cc12	-	Huh7	2a - JFH	-	0.025 µM
Nc1ccc(S(=O)(=O)/N=C2/NC(=O)/C(=C/c3ccc(-c4ccccc4)cc3)S2)cc1	-	Huh 5-2	1b	-	>115 µM
COc1ccc(-c2nc(NC(=O)[C@H](C)c3ccc(Cl)cc3)[nH]c2C)cc1S(=O)(=O)CCO	-	Huh7	1a	-	1.68 µM

2 of the rows above, restated:

{"SMILES": "CCCCn1c(=O)c2cc(OC)ccc2c2cc(C(O)(C(F)(F)F)C(F)(F)F)c(OC)cc21", "cell line": "LucNeo2 cells", "strain": "1b", "result": "0.13 µM"}
{"SMILES": "COc1ccc(/C=C2\\S/C(=N/S(=O)(=O)c3ccc(Cl)cc3)NC2=O)cc1", "cell line": "Huh 5-2", "strain": "1b", "result": ">71.07 µM"}